Patent US20040029254A1, “Method of screening anti-bacterial agents for effectiveness in treating persistant intracellular infections” (University of Washington, priority 2002, published 2004)

Tested on: C. psittaci 6BC, GPIC

Compound | MCC1 (shell vial) [µg/mL] | MCC (microtiter) [µg/mL]
C[C@H]1c2cccc(O)c2C(=O)C2=C(O)[C@]3(O)C(=O)C(C(N)=O)=C(O)[C@@H](N(C)C)[C@@H]3[C@@H](O)[C@@H]21 [Doxycycline, doxycycline] | >8 | 0.250
CC1COc2c(N3CCN(C)CC3)c(F)cc3c(=O)c(C(=O)O)cn1c23 (stereo not shown) [Ofloxacin, ofloxacin] | >8 | 2.0
